Reference: PubChem BioAssay AID624099 (ICCB-Longwood, 2012)

- Purpose: 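Host factors E2 relies on to silence an HPV18 LCR reporter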 (primary screen)
- Cell system: human C33A cervical carcinoma cells (HPV-negative) stably expressing BPV1 E2 and an HPV18 LCR luciferase reporter
- Reagent: siRNA pool against human genes, 40 nM
- Time to read-out: 72 h
- Detection: 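HPV18 LCR reporter light per well, converted to plate-wise z-scores that exclude control wells, and averaged over triplicate plates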
- Direction: mean z-score and z-score: higher = stronger reporter signal, weaker E2 silencing
- Active means: 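Hit if mean z-score reaches 2 and two or more of three replicate z-scores also reach 2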
In all, the deposit lists about 21,000 reagents; this is a part drawn at random. 497 of all reagents (2.4%) count as active. 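Higher z means weaker E2 silencing; only reporter increases were scored, and knock-downs that hurt cell survival may mask genuine repressor factors.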 Reagents against one gene are numbered here.

Gene	pool no.	mean z-score	z-score, replicate A	z-score, replicate B	z-score, replicate C	Call
LOC389085 (retired record) (GeneID 389085)	1	-0.42	-0.63	-0.79	0.14	inactive
RNF207 (GeneID 388591)	1	1.27	1	1.35	1.46	inactive
RNF207 (GeneID 388591)	2	3.95	4.67	3.88	3.32	active
KIAA2012 (GeneID 100652824)	1	0.39	0.13	0.45	0.6	inactive
KIAA2012 (GeneID 100652824)	2	0.43	0.36	0.43	0.5	inactive
CCDC88C (GeneID 440193)	1	0.64	0.4	0.8	0.71	inactive
MAP7D1 (GeneID 55700)	1	0.69	0.36	0.68	1.02	inactive
GSE1 (GeneID 23199)	1	1.73	1.25	2.2	1.73	inactive
C3orf49 (GeneID 132200)	1	-0.62	-0.53	-0.7		inactive
JAZF1 (GeneID 221895)	1	-0.54	-0.81	-0.68	-0.14	inactive
TRMT112P6 (GeneID 391358)	1	-0.04	-0.09	0.09	-0.12	inactive
RHOG (GeneID 391)	1	-0.65	-0.48	-0.8	-0.65	inactive
C9orf85 (GeneID 138241)	1	0.19	0.11	0.6	-0.12	inactive
ETNK2 (GeneID 55224)	1	-1.13	-1	-1.47	-0.91	inactive
SACK1C (GeneID 128876)	1	1.03	0.59	1.47	1.03	inactive
ARMS2 (GeneID 387715)	1	-0.64	-0.48	-0.98	-0.47	inactive
TSPAN33 (GeneID 340348)	1	0.06	-0.04	0	0.22	inactive
LRRC74A (GeneID 145497)	1	2.06	2.24	1.77	2.18	active
DMXL1 (GeneID 1657)	1	1.27	1.19	1.37	1.24	inactive
PENK (GeneID 5179)	1	-1.08	-1.33	-1.09	-0.81	inactive
CYFIP2 (GeneID 26999)	1	-1.04	-1.03	-1.05	-1.05	inactive
KRTAP20-2 (GeneID 337976)	1	0.75	0.96	0.68	0.6	inactive
MARCHF1 (GeneID 55016)	1	-0.35	-0.18	-0.11	-0.74	inactive
SMG7 (GeneID 9887)	1	-1.83	-1.81	-1.79	-1.88	inactive
PSME3IP1 (GeneID 80011)	1	-0.68	-0.27	-0.75	-1.03	inactive
IGSF21 (GeneID 84966)	1	-0.13	-0.11	-0.18	-0.1	inactive
C1QB (GeneID 713)	1	-0.13	-0.16	-0.11	-0.13	inactive
ENTREP1 (GeneID 9413)	1	-0.37	-0.45	-0.12	-0.55	inactive
OMP (GeneID 4975)	1	-0.52	-0.67	-0.18	-0.69	inactive
LOC392222 (retired record) (GeneID 392222)	1	0.21	0.12	0.44	0.09	inactive
PTGES3P1 (GeneID 284672)	1	0.74	0.95	0.81	0.47	inactive
AP2A1 (GeneID 160)	1	1.27	1.4	0.88	1.52	inactive
ATP9A (GeneID 10079)	1	-0.86	-0.83	-0.76	-1	inactive
E2F2 (GeneID 1870)	1	-0.88	-0.79	-0.89	-0.96	inactive
LOC389369 (retired record) (GeneID 389369)	1	-0.95	-0.76	-1.05	-1.05	inactive
ADA2 (GeneID 51816)	1	1.61	1.72	1.65	1.46	inactive
RPL36AL (GeneID 6166)	1	0.25	0.33	0.35	0.07	inactive
LRRK1 (GeneID 79705)	1	-0.07	-0.09	-0.18	0.05	inactive
LOC389339 (retired record) (GeneID 389339)	1	-0.03	-0.23	-0.04	0.18	inactive
DEFB125 (GeneID 245938)	1	-0.53	-0.79	-0.24	-0.55	inactive
CLHC1 (GeneID 130162)	1	-0.07	0.31	-0.32	-0.21	inactive
MYBBP1A (GeneID 10514)	1	0.77	0.71	0.74	0.86	inactive
LOC389628 (retired record) (GeneID 389628)	1	1.51	1.73	1.04	1.77	inactive
TTC38 (GeneID 55020)	1	0.2	0.13	-0.12	0.6	inactive
NCDN (GeneID 23154)	1	-1.77	-1.83	-1.86	-1.62	inactive
ZNF595 (GeneID 152687)	1	0.16	0.08	0.26	0.13	inactive
TMEM132E-DT (GeneID 400591)	1	-0.42	-0.93	-0.08	-0.26	inactive
SOX13 (GeneID 9580)	1	-0.84	-1.05	-0.7	-0.77	inactive
GZF1 (GeneID 64412)	1	-0.04	-0.34	-0.19	0.42	inactive
SHC1 (GeneID 6464)	1	0.29	0.55	0.04	0.27	inactive
LOC389665 (retired record) (GeneID 389665)	1	0.24	0.23	0.2	0.27	inactive
CASP14 (GeneID 23581)	1	0.45	0.64	0.22	0.48	inactive
SH3BGRL2 (GeneID 83699)	1	0.07	-0.12	0.16	0.17	inactive
CEACAM19 (GeneID 56971)	1	1.29	1.54	0.93	1.42	inactive
SLC22A14 (GeneID 9389)	1	-0.12	-0.13	-0.12	-0.11	inactive
SIGLEC6 (GeneID 946)	1	-0.68	-0.75	-0.54	-0.74	inactive
MYO7A (GeneID 4647)	1	1.31	1.56	1.27	1.1	inactive

Laid out differently: results already given
RHOG (GeneID 391)
- mean z-score: -0.65
- z-score, replicate A: -0.48
- z-score, replicate B: -0.8
- z-score, replicate C: -0.65
- Call: inactive

C9orf85 (GeneID 138241)
- mean z-score: 0.19
- z-score, replicate A: 0.11
- z-score, replicate B: 0.6
- z-score, replicate C: -0.12
- Call: inactive

ETNK2 (GeneID 55224)
- mean z-score: -1.13
- z-score, replicate A: -1
- z-score, replicate B: -1.47
- z-score, replicate C: -0.91
- Call: inactive

SACK1C (GeneID 128876)
- mean z-score: 1.03
- z-score, replicate A: 0.59
- z-score, replicate B: 1.47
- z-score, replicate C: 1.03
- Call: inactive

ARMS2 (GeneID 387715)
- mean z-score: -0.64
- z-score, replicate A: -0.48
- z-score, replicate B: -0.98
- z-score, replicate C: -0.47
- Call: inactive

TSPAN33 (GeneID 340348)
- mean z-score: 0.06
- z-score, replicate A: -0.04
- z-score, replicate B: 0
- z-score, replicate C: 0.22
- Call: inactive

LRRC74A (GeneID 145497)
- mean z-score: 2.06
- z-score, replicate A: 2.24
- z-score, replicate B: 1.77
- z-score, replicate C: 2.18
- Call: active

DMXL1 (GeneID 1657)
- mean z-score: 1.27
- z-score, replicate A: 1.19
- z-score, replicate B: 1.37
- z-score, replicate C: 1.24
- Call: inactive

PENK (GeneID 5179)
- mean z-score: -1.08
- z-score, replicate A: -1.33
- z-score, replicate B: -1.09
- z-score, replicate C: -0.81
- Call: inactive
